# Results of single-concentration screens

Values are the deposited “Percent Effect”, in %.
The record does not define 0% and 100%; most values in the screen are far below 50% and negative numbers occur (in some assays of this library far below -100).
The entries come from a sample that favours strong results.
Two or more numbers in one place are separate tests of the same structure; such repeats can differ widely.

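Phenotypic screen: M. tuberculosis growth, glucose 7H9 medium, 3 days; the read-out is not stated. Tested at 50 µM. Direction is inferred from retests: higher values go with more growth inhibition. About 69,000 compounds were tested under these conditions; 1.1% (about 760) showed 50% or more at least once.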

* O=C(NCCc1c[nH]c2ccc(F)cc12)C1(n2cnnn2)CCCCC1 | 52.16%
* CCN(C)S(=O)(=O)NCC(O)c1c(Cl)cccc1Cl (configuration not stated) | -9.97% & -3.503%
* Br.O=C(CN(C1=NCCCC1)c1ccccc1)c1ccccc1 | -36.45% & -5.856%
* Cc1nc(N2CCOCC2)nc(C)c1NC(=O)Cc1ccc(Cl)cc1 | -23.19% & -6.371%
* O=C(C1CCCOC1)N1CCc2ccc(F)cc21 (configuration not stated) | 4.655% & -19.24%
* CCN(C)S(=O)(=O)NCC1(c2cccc(Br)c2)CC1 | 21.12%
* NC(=O)CN(Cc1ccc(Br)cc1)C(=O)c1ccccn1 | 12.57%
* COc1ccc(C(=O)N2CCN(c3cc(CCN)nc(C)n3)CC2)cc1 | 4.797%
* CN(C)CCNc1ccc(-c2nc(-c3ccccc3F)no2)cn1 | 56.49%
* Cc1oc(-c2ccc(Cl)cc2)nc1C(=O)NC1=NCCS1 | 42.14% & 40.33%
* CC(C)c1ccc(CN2C(=O)C3(CCNCC3)Nc3ccccc32)cc1 | 75.85%
* Cn1ccnc1CNCCNc1ncc(Cl)cc1Cl | -14.23%
* CCCc1nnc(NC2CCN(CCO)CC2)o1 | 7.314%
* CCc1nc(Cn2nc(COC)oc2=O)cs1 | 50.48%
* CC(Cn1cc(Br)cn1)C(=O)Nc1ccncc1 (configuration not stated) | 55.16%
* COc1ccc(CC(=O)Nc2c(C)nc(N3CCOCC3)nc2C)cc1 | -0.9237% & 35.1%
* CCCc1nn(Cc2csc(CC)n2)c(=O)o1 | 49.13%
* Cc1cc(C)cc(C(=O)NCc2ncnn2C)c1 | 37.94%
* CN(Cc1cccc(C(F)(F)F)c1)Cc1nc(-c2cnccn2)no1 | 11.52%
* Cc1nc(C2CCCN2Cc2cc(Cl)c3c(c2)OCO3)no1 (configuration not stated) | 44.74%
* CCN(C(=O)C1Cc2cc(Cl)ccc2O1)C1CC1 (configuration not stated) | -26.12% & -0.3512%
* CNC(=O)[C@@H]1C[C@@H](N)CN1c1nnc(-c2ccccc2)s1 | -7.306% & -0.3358%
* CC(C)c1noc(CN(C)C(=O)c2ncn[nH]2)n1 | -28.26%
* Cc1ccc(NC(=O)CS(=O)(=O)NC2CCC(C)CC2)nc1 (configuration not stated) | 50.81%
* Cc1cc(C(=O)NCC(C)N2CCc3ccccc32)on1 (configuration not stated) | -3.536%
* CCc1nc(CN(C)CC(N)=O)cs1 | -28.7%
* CC(C)C[C@H](N)COc1cccc(F)c1Oc1ccccc1 | 23.35%
* OC1CCN(c2nc(-c3ccccc3)no2)CC1 | -8.685% & -7.539%
* COCc1nn(Cc2ccc(Cl)s2)c(=O)o1 | 37.31%
* Cc1ccc(C(=O)N2CCN(Cc3ccsc3)CC2)n1C | -3.684%
* O=C(Nc1ccncc1)NC1CCN(c2ccccc2OC(F)F)C1 (configuration not stated) | 32.48% & 15.89%
* Cc1nc2c(Nc3cccc(C#N)c3)nc(N)nc2n1C | 67.11%
* Cc1oc(-c2cccs2)nc1C(=O)N(C)C1(C#N)CCC1 | 10.44%
* CCNC(=O)N1CCC(n2ccc(C(F)(F)F)n2)CC1 | -0.5876%
* O=S(=O)(NCCCN1CC=CC1)c1cncc(Cl)c1 | 12.31%
* OC(CNC1CCOCC1)c1ccc(Cl)c(F)c1 (configuration not stated) | 18.74%
* CCCc1nc(Nc2cccc(C(N)=O)c2)c2c(n1)c(C)nn2CC | -9.483%
* Clc1cc(NCc2ccncc2)nc2[nH]ccc12 | -8.731%
* CC(C)C(=O)Nc1cc(C(C)(C)C)nn1-c1ccccn1 | 22.47%
* Cc1nc(C2CCCN(C(=O)c3cc4c(s3)CCCC4)C2)no1 (configuration not stated) | 10.11% & 51.1%
* CNC(=O)Cc1cc2nccc(-c3c(OC)cccc3OC)n2n1 | 33.7%
* O=C1CCc2cc(-c3csc(CCN4CCCC4=O)n3)ccc2N1 | -15.05%
* COc1ccc(N2CCC(N3CCOC(C(F)(F)F)C3)CC2)cc1 (configuration not stated) | 11.1%
* Cn1ncc2c(NCCn3cccc3)nc(C3CCCC3)nc21 | 10.76%
* Cc1ccc2nc(C)cc(C(=O)NCc3csc(N(C)C)n3)c2c1 | 20.77%
* CCn1nc(C)c2nc(C)nc(NCCc3ccc(C)cc3)c21 | 30.52% & 53.23%
* COc1cc(C#N)ccc1OC12CCCN(CC1)C2 (configuration not stated) | 29.69%
* Cn1c(CCNc2nccnc2C#N)nc2ccc(F)cc21 | 1.815%
* Cn1ccnc1CN1CCN(CC(O)c2ccc(F)cc2)CC1 (configuration not stated) | -3.582%
* O=C(CNc1cccc(CC(F)(F)F)c1)NCc1ccco1 | 19.75%

The last 4 entries again:

{"compound": "COc1cc(C#N)ccc1OC12CCCN(CC1)C2", "stereo": "configuration not stated", "Percent Effect": 29.69}
{"compound": "Cn1c(CCNc2nccnc2C#N)nc2ccc(F)cc21", "Percent Effect": 1.815}
{"compound": "Cn1ccnc1CN1CCN(CC(O)c2ccc(F)cc2)CC1", "stereo": "configuration not stated", "Percent Effect": -3.582}
{"compound": "O=C(CNc1cccc(CC(F)(F)F)c1)NCc1ccco1", "Percent Effect": 19.75}

Data taken from ChEMBL document CHEMBL3988442, “University of Dundee, Small-Polar-MMV Screening Library” (2021).